One assay addresses HLA-A0201 (Homo sapiens, UniProt P04439, D140Y/D185E/D98H/E176V/E277Q/G131W/G231S/I119V/I121R/I166T/I218V/L300P/L318F/N151K/N90K/P208A/P217A/Q86G/Q94H/R138H/R169H/T345S). Conditions: cited from earlier work.
For assay [1], the system named is CD8+ T cells from Influenza A positive donors sorted with HLA A2.1::[…] tetramers. It counts as cell-based, human.
Assay [2] shares this test system. It counts as cell-based, human. The source holds these as a separate data set.

In the case of FLPSDFFPSV, the “affinity for HLA-A2.1 (in words, background statement)” value in the assay with HLA-A0201 is on record as “very high affinity for HLA-A2.1”. For the same sequence, in assay [1], the “% CD8+ T cells producing IFN-γ (% IFN)” value is given as 0.0% and the “Geometric mean IFN-γ (Geo IFN)” value is given as 106 arbitrary fluorescence units. Moreover, in assay [2], the “% Positive TCR recognition (% TCR)” value was found to be 0.10% and the “Geometric mean (Geo TCR)” value is listed as 100 arbitrary fluorescence units.

Values taken from US20140004137A1, “IMMUNE RESTRICTED PEPTIDES WITH INCREASED EFFICACY” (priority 2010, published 2014).
